# Assays:
# [1] = system: human erythrocytes; assay: Permeability and stability in human erythrocytes (RBC and iRBC); details: 100 μM AST, 48 h
# [2] = system: human cell lines (HEK293, THP-1, macrophage, HepG2, Caco-2); assay: Membrane permeability in human cell lines (total arsenic by ICP-MS); details: 100 μM AST, 48 h, Caco2
smiles,measurement,setting,value
"C[As](=O)(O)CC[C@H](N)C(=O)O [AST, 2-amino-4-(hydroxymethylarsinoyl)butanoate]",predominant arsenic species in the culture medium of erythrocytes (stability),[1],almost exclusively AST
same,uptake by erythrocytes,[1]; RBC and iRBC (regardless of malaria infection),took up little AST
same,"total arsenic level in cells, rank among cell types",[2],highest

# From patent US11877996B1 (priority 2023, dated 2024)
